pKi: −log10 of the molar value. Where two headings read alike, the source gives them in different places.
Molecular target: full-length hepatitis C viral protein NS3•4A (Hepatitis C virus genotype 1a, UniProt P27958)
Assay: HCV NS3 Peptide Cleavage Assay (Enzyme Assay 2), apparent Ki
From the text: Using standard recombinant DNA techniques, a cDNA fragment encoding the sequence for NS3 and NS4A, residues Ala1027 to Cys1711 from the HCV sub-type strain 1a, containing an N-terminal hexa-histidine sequence, was cloned into the baculoviral transfer vector pVL1392 (Webb N R and Summers M D (1990) Expression of proteins using recombinant baculoviruses, Techniques 2:173-188). […] The transfected insect cells containing recombinant baculovirus clones were subsequently isolated by plaque purification. High-titer clonal baculovirus was routinely used to infect SD insect cells for protein production. In production, Sf9 cells were grown at 27° C. until they reached a density of 2.0×10^6 cells/ml. At this point, the insect cells were infected with virus. After 72 hours or when the cell viability was between 70-80% the culture was harvested and the cells were ready for purification. The NS3•4A protein (SEQ ID NO:1) was purified as follows. Cell paste was thawed in at least five volumes of Lysis Buffer (50 mM Na2HPO4 pH 8.0, 10% Glycerol, 300 mM NaCl, 5 mM β-mercaptoethanol, 0.2 mM PMSF, 2.5 μg/ml Leupeptin, 1.0 μg/mlE64, 2.0 μg/ml Pepstatin) per gram of cell paste. The cell paste was then homogenized on ice using a Dounce homogenizer. The cells were next mechanically disrupted by passing once through a microfluidizer (Microfluidics Corporation, Newton, Mass.), and the cell lysate was collected on ice. The cell lysates was centrifuged at 100,000×g for 30 minutes at 4° C. and the supernatants were decanted. Optionally, the pellets were resuspended in wash buffer (Lysis Buffer+0.1% β-octyl glucopyranoside), homogenized using a Dounce homogenizer and centrifuged at 100,000×g for 30 minutes at 4° C. Insoluble NS3° 4A was extracted from the pellets by resuspending in Extraction Buffer (Lysis Buffer+0.5% lauryl maltoside) using 2.5 ml/g cell paste. The mixture was homogenized using a Dounce homogenizer and mixed at 4° C. for three hours or more. The mixture was centrifuged at 100,000×g for 30 minutes at 4° C. The supernatants were decanted and pooled. The NS3•4A protein was further purified using Nickel-NTA metal affinity chromatography. Imidazole from a 2 M stock, pH 8.0, solution was added to the pooled supernatants so that the final concentration of imidazole was 10 mM. The supernatants were incubated batchwise overnight at 4° C. with Nickel-NTA affinity resin that had been pre-equilibrated with Lysis Buffer+10 mM imidazole. 1 ml of resin per 5 μg of expected NS3-4A was used. The resin was next settled by gravity or by centrifugation at 500×g for five minutes. The resin was next poured into a gravity flow column and washed with 10 or more column volumes of Nickel Wash Buffer (Lysis Buffer+0.1% lauryl maltoside+10 mM imidazole). The column was next eluted with three to four column volumes of Nickel Elution Buffer (Nickel Wash Buffer+300 mM imidazole). The elution fractions were collected on ice and evaluated using SDS-PAGE. To prevent NS3-4A proteolysis, 100 μM DFP protease inhibitor was added to gel samples before adding SDS sample buffer and boiling. The peak fractions were pooled and protein concentration was determined by measuring absorbance at 280 ηm and by dividing by the extinction coefficient (e), which for NS3•4A is 1.01. The NS3•4A was purified further using gel filtration chromatography. A Superdex 200 26/60 column was equilibrated with Superdex Buffer (20 mM HEPES pH 8.0, 10% glycerol, 300 mM NaCl, 10 mM β-mercaptoethanol, 0.05% lauryl maltoside) at a rate of 3 ml/min. The nickel purified NS3•4A was concentrated in a Centriprep 30 to greater than 2 mg/ml, if necessary, and was filtered through a 0.2 μm syringe filter and up to 10 ml was loaded onto the Superdex 200 column. After 0.3 column volumes passed through, 4-5 ml fractions were collected. Fractions were evaluated by SDS-PAGE. NS3•4A protein elutes in two peaks. Peak 1 contains aggregated NS3•4A and peak 2 contains active protein. The fractions of peak 2 were pooled, aliquoted and frozen at −70° C. […]

Amino acid sequences for entries named in this document (tags omitted). Chains listed by the source or under a name are the forms on record and can include a tag or linker. Residues count along the entry.
UniProt P27958, 1658-1711 partner limits assumed: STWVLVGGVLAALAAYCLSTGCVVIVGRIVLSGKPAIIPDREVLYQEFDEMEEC
UniProt P27958, 1027-1711 with tags or gaps with the stated changes: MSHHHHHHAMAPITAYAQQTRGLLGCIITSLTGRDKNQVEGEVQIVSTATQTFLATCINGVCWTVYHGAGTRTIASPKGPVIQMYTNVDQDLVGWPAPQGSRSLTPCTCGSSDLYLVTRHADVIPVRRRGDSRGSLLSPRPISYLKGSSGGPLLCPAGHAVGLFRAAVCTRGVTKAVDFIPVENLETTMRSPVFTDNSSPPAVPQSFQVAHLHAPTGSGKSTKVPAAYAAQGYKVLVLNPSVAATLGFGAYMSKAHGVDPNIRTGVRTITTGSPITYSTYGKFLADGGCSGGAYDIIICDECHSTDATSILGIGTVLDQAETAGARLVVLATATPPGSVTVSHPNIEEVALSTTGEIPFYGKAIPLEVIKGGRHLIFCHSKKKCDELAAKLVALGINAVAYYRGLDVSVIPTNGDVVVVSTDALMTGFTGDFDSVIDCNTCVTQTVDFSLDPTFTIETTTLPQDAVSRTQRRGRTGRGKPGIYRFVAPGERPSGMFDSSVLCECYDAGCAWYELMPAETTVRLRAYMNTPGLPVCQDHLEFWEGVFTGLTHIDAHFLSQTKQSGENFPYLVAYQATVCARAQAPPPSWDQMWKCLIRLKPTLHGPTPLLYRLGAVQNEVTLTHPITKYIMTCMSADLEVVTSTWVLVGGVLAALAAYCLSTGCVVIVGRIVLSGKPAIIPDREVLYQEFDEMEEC

[1] = read-out: Enzyme Assay 2, HCV NS3 Peptide Cleavage Assay, apparent Ki
[2] = read-out: Enzyme Assay 2 (HCV NS3 Peptide Cleavage Assay) activity, apparent Ki class

SMILES: CC[C@@H]1C[C@H]1C(=O)N[C@H](C(=O)N1C[C@@]2(CC(c3cccc(Cl)c3)=NO2)C[C@H]1C(=O)N[C@@H](CC1CC1)C(=O)C(=O)NC)C(C)(C)C
- pKi [1]: > 7.00

SMILES: CNC(=O)C(=O)[C@H](CC1CC1)NC(=O)[C@@H]1C[C@]2(CC(c3cccc(Cl)c3)=NO2)CN1C(=O)[C@@H](NC(=O)[C@H]1C[C@@H]1c1ccccn1)C(C)(C)C
- pKi [1]: 6.30 to 7.00

SMILES: CCC[C@H](NC(=O)[C@@H]1C[C@]2(CC(c3cccc(Cl)c3)=NO2)CN1C(=O)[C@@H](NC(=O)[C@@H]1C[C@H]1C1CCCCC1)C(C)(C)C)C(=O)C(=O)NC1CC1
- pKi [1]: > 7.00

SMILES: CNC(=O)C(=O)[C@H](CC1CC1)NC(=O)[C@@H]1C[C@]2(CC(c3cccc(Cl)c3)=NO2)CN1C(=O)[C@@H](NC(=O)C1(C)CC1)C(C)(C)C
- pKi [1]: 6.30 to 7.00

SMILES: CCC[C@H](NC(=O)[C@@H]1C[C@]2(CC(c3cc(C)c(O)c(C)c3)=NO2)CN1C(=O)[C@@H](NC(=O)CC1CCCCC1)C(C)(C)C)C(=O)C(=O)NC1CC1
- pKi [1]: > 7.00

SMILES: CCC[C@H](NC(=O)[C@@H]1C[C@]2(CC(c3cc(C)c(OC)c(C)c3)=NO2)CN1C(=O)[C@@H](NC(=O)CC1CCCCC1)C(C)(C)OC)C(=O)C(=O)NC1CC1
- pKi [2]: > 7.00

SMILES: COc1c(C)cc(C2=NO[C@]3(C2)C[C@@H](C(=O)N[C@@H](CC2CC2)C(=O)C(N)=O)N(C(=O)[C@@H](NC(=O)[C@@H]2C[C@H]2c2ccccc2)C(C)(C)C)C3)cc1C
- pKi [1]: > 7.00

SMILES: CCC[C@H](NC(=O)[C@@H]1C[C@]2(CC(c3cc(Cl)c(OC)cc3OC)=NO2)CN1C(=O)[C@@H](NC(=O)C1CC1)C(C)(C)C)C(=O)C(=O)NC1CC1
- pKi [1]: > 7.00

SMILES: CCOc1c(C)cc(C2=NO[C@]3(C2)C[C@@H](C(=O)N[C@@H](CC2CC2)C(=O)C(=O)NC)N(C(=O)[C@@H](NC(=O)CC2CCCCC2)C(C)(C)C)C3)cc1Cl
- pKi [1]: > 7.00

SMILES: CNC(=O)C(=O)[C@H](CC1CC1)NC(=O)[C@@H]1C[C@]2(CC(c3cc(C)c(OC)c(C)c3)=NO2)CN1C(=O)[C@@H](NC(=O)OC1CCCC1)C(C)(C)C
- pKi [2]: > 7.00

SMILES: CCC[C@@H](NC(=O)[C@@H]1C[C@]2(CC(c3cc(C)c(OC)c(C)c3)=NO2)CN1C(=O)[C@@H](NC(=O)OC1CCCC1)C(C)(C)C)C(=O)C(=O)NC
- pKi [2]: < 6.30

SMILES: CCC[C@H](NC(=O)[C@@H]1C[C@]2(CC(c3cccc(Cl)c3)=NO2)CN1C(=O)[C@@H](NC(=O)[C@@H]1[C@@H](C=C(C)C)C1(C)C)C(C)(C)C)C(=O)C(=O)NC1CC1
- pKi [1]: 6.30 to 7.00

SMILES: CCC[C@H](NC(=O)[C@@H]1C[C@]2(CC(Oc3ccccc3)=NO2)CN1C(=O)[C@@H](NC(=O)OC1CCCC1)C(C)(C)C)C(=O)C(=O)NC1CC1
- pKi [1]: 6.30 to 7.00

SMILES: CCC[C@H](NC(=O)[C@@H]1C[C@]2(CC(c3cc(Cl)c(OC)cc3OC)=NO2)CN1C(=O)[C@@H](NC(=O)CC1CCCCC1)C(C)(C)C)C(=O)C(=O)NC
- pKi [2]: > 7.00

SMILES: CCC[C@H](NC(=O)[C@@H]1C[C@]2(CC(N(C)C)=NO2)CN1C(=O)[C@@H](NC(=O)OC1CCCC1)C(C)(C)C)C(=O)C(=O)NC1CC1
- pKi [1]: < 6.30

SMILES: CCC[C@H](NC(=O)[C@@H]1C[C@]2(CC(c3cccc(Cl)c3)=NO2)CN1C(=O)[C@@H](NC(=O)[C@@H]1CC12CCOCC2)C(C)(C)C)C(=O)C(N)=O
- pKi [1]: > 7.00

SMILES: CCC[C@H](NC(=O)[C@@H]1C[C@]2(CC(c3cc(Cl)c(OCC)cc3OC)=NO2)CN1C(=O)[C@@H](NC(=O)OC(C)(C)C)C(C)(C)C)C(=O)C(=O)NC1CC1
- pKi [1]: > 7.00

SMILES: CCC[C@H](NC(=O)[C@@H]1C[C@]2(CC(c3nccc4ccccc34)=NO2)CN1C(=O)[C@@H](NC(=O)CC1CCCCC1)C(C)(C)C)C(=O)C(=O)NC
- pKi [2]: 6.30 to 7.00

SMILES: CCC[C@H](NC(=O)C1C[C@]2(CC(n3cc(C)c(=O)[nH]c3=O)=NO2)CN1C(=O)[C@@H](NC(=O)CC1CCCCC1)C(C)(C)C)C(=O)C(=O)NC1CC1 (stereo partly drawn)
- pKi [1]: 6.30 to 7.00

SMILES: CCC[C@H](NC(=O)[C@@H]1C[C@]2(CC(c3cc(Cl)ccc3OC)=NO2)CN1C(=O)[C@@H](NC(=O)CC(F)(F)F)C(C)(C)C)C(=O)C(=O)NC1CC1
- pKi [2]: > 7.00

SMILES: CCC[C@H](NC(=O)[C@@H]1C[C@]2(CC(c3cc(C)c(OC)c(C)c3)=NO2)CN1C(=O)[C@@H](NC(=O)CC(C)(C)C)C(C)(C)C)C(=O)C(=O)NC1CC1
- pKi [2]: > 7.00

SMILES: CCNC(=O)C(=O)[C@H](CC1CC1)NC(=O)[C@@H]1C[C@]2(CC(c3cccc(Cl)c3)=NO2)CN1C(=O)[C@@H](NC(=O)OC1CCCC1)C(C)(C)C
- pKi [1]: > 7.00

SMILES: CCC[C@H](NC(=O)[C@@H]1C[C@]2(CC(c3cncnc3)=NO2)CN1C(=O)[C@@H](NC(=O)OC1CCCC1)C(C)(C)C)C(=O)C(=O)NC1CC1
- pKi [1]: < 6.30

SMILES: CCC[C@H](NC(=O)[C@@H]1C[C@]2(CC(c3cc(C)c(OCC)c(Cl)c3)=NO2)CN1C(=O)[C@@H](NC(=O)OC(C)(C)C)C(C)(C)C)C(=O)C(=O)NC
- pKi [2]: > 7.00

SMILES: CCC[C@H](NC(=O)[C@@H]1C[C@]2(CC(c3cc(C)c(OCC)c(Cl)c3)=NO2)CN1C(=O)[C@@H](NC(=O)CC1CCCCC1)C(C)(C)C)C(=O)C(=O)NC1CC1
- pKi [1]: > 7.00

SMILES: CCC[C@H](NC(=O)[C@@H]1C[C@]2(CC(c3cccc(Cl)c3)=NO2)CN1C(=O)[C@@H](NC(=O)CC1CC2CCC1C2)C(C)(C)C)C(=O)C(=O)NC (stereo partly drawn)
- pKi [2]: > 7.00

SMILES: CCC[C@H](NC(=O)[C@@H]1C[C@]2(CC(c3cccc(Cl)c3)=NO2)CN1C(=O)[C@@H](NC(=O)OC(C)(C)C)C(C)(C)C)C(=O)C(=O)NC
- pKi [2]: > 7.00

SMILES: CCC[C@H](NC(=O)[C@@H]1C[C@]2(CC(c3cc(Cl)c(OCC)cc3OC)=NO2)CN1C(=O)[C@@H](NC(=O)OC1CCCC1)C(C)(C)C)C(=O)C(=O)NC1CC1
- pKi [1]: > 7.00

SMILES: CCC[C@H](NC(=O)[C@@H]1C[C@]2(CC(c3cccc(Cl)c3)=NO2)CN1C(=O)[C@@H](NC(=O)C1C(C)(C)C1(C)C)C(C)(C)C)C(=O)C(=O)NC1CC1
- pKi [1]: > 7.00

SMILES: CCC[C@H](NC(=O)[C@@H]1C[C@]2(CC(c3cc(C)c(OC)c(C)c3)=NO2)CN1C(=O)[C@@H](NC(=O)[C@@H]1C[C@H]1c1ccccc1)C(C)(C)C)C(=O)C(=O)NC
- pKi [1]: > 7.00

SMILES: CCC[C@H](NC(=O)[C@@H]1C[C@]2(CC(c3nccc4ccccc34)=NO2)CN1C(=O)[C@@H](NC(=O)OC1CCCC1)C(C)(C)C)C(=O)C(=O)NC
- pKi [2]: 6.30 to 7.00

SMILES: CCC[C@H](NC(=O)[C@@H]1C[C@]2(CC(c3nccc4ccccc34)=NO2)CN1C(=O)[C@@H](NC(=O)CC1CCCCC1)C(C)(C)C)C(=O)C(=O)NC1CC1
- pKi [2]: > 7.00

SMILES: CCC[C@H](NC(=O)[C@@H]1C[C@]2(CC(c3cccc(Cl)c3OC)=NO2)CN1C(=O)[C@@H](NC(=O)CC1CCCCC1)C(C)(C)C)C(=O)C(=O)NC1CC1
- pKi [2]: 6.30 to 7.00

SMILES: CNC(=O)C(=O)[C@H](CC1CC1)NC(=O)[C@@H]1C[C@]2(CC(c3cc(C)c(OC)c(C)c3)=NO2)CN1C(=O)[C@@H](NC(=O)OC1CCCC1)C(C)(C)OC
- pKi [2]: > 7.00

SMILES: COc1cc(OC)c(C2=NO[C@]3(C2)C[C@@H](C(=O)N[C@@H](CC2CC2)C(=O)C(N)=O)N(C(=O)[C@@H](NC(=O)OC2CCCC2)C(C)(C)C)C3)cc1C
- pKi [1]: > 7.00

SMILES: CCC[C@H](NC(=O)[C@@H]1C[C@]2(CC(c3cc(C)c(OC)cc3OC)=NO2)CN1C(=O)[C@@H](NC(=O)CC1CCCCC1)C(C)(C)C)C(=O)C(=O)NC
- pKi [1]: > 7.00

SMILES: CCC[C@H](NC(=O)[C@@H]1C[C@]2(CC(c3cc(C)c(OC)c(Cl)c3)=NO2)CN1C(=O)[C@@H](NC(=O)[C@@H]1C[C@H]1c1ccccc1)C(C)(C)C)C(=O)C(=O)NC
- pKi [1]: > 7.00

SMILES: CNC(=O)C(=O)[C@H](CC1CC1)NC(=O)[C@@H]1C[C@]2(CC(c3cc(C)c(OC)c(Cl)c3)=NO2)CN1C(=O)[C@@H](NC(=O)[C@H]1C[C@@H]1c1ccccc1)C(C)(C)C
- pKi [2]: > 7.00

SMILES: COc1c(C)cc(C2=NO[C@]3(C2)C[C@@H](C(=O)N[C@@H](CC2CC2)C(=O)C(N)=O)N(C(=O)[C@@H](NC(=O)[C@H]2C[C@@H]2c2ccccc2)C(C)(C)C)C3)cc1C
- pKi [1]: > 7.00
